Results from the supplement of paper PMC9931576.
Human monoclonal antibodies against the spike receptor-binding domain (heavy:light variable regions). IC50 against pseudoviruses bearing the spike of naturally observed variants; lower = stronger; >10 µg/ml means not reached at the top dose. No active / inactive call. The stated detection limit is 0.0005 µg/ml; values near or below 0.001 µg/ml lie at the floor of the assay.

What was measured:
Test in all cases: pseudovirus neutralization IC50; higher = weaker neutralization
[1] = molecular target: SARS-CoV-2 Omicron BA.1 spike pseudovirus
Method: (§1)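 Single-round VSV luciferase pseudovirus mixed with antibody dilutions for 1 h and put on Huh-7 cells for about a day; IC50 from the dose curve.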

[2] = molecular target: SARS-CoV-2 Omicron BA.2 spike pseudovirus
Method: as §1

[3] = molecular target: SARS-CoV-2 Omicron BA.2.75 spike pseudovirus
Method: as §1

[4] = molecular target: SARS-CoV-2 Omicron BA.5 spike pseudovirus
Method: as §1

[5] = molecular target: SARS-CoV-2 Omicron BQ.1.1 spike pseudovirus
Method: as §1

[6] = molecular target: SARS-CoV-2 Omicron XBB spike pseudovirus
Method: as §1

[7] = molecular target: SARS-CoV-2 early D614G spike pseudovirus
Method: as §1

B1: BD56-1890 (protein)
chain 1: QVQLVQSGAEVKKPGSSVKVSCKVSGGTFSSHALSWVRQAPGQGLEWMGTIIPILGITTYAQSFQGRVTITADKSTNTVYMDLNSLRSEDTAVFYCAKRPWPDELFFGDAGFNVWGQGTVVTVSS
chain 2: DIVMTQSPLSLPVTPGESASISCRSNQSLLHSNGYSYLDWYLQKPGQSPQLLIYLGSNRASGVPDRFSGSGSGTDFTLRISRVEAEDVGVYYCMQALQTGFTFGPGTKVDIK
[1]
  pseudovirus neutralization IC50: 0.0282 µg/mL
[2]
  pseudovirus neutralization IC50: 0.0066 µg/mL
[3]
  pseudovirus neutralization IC50: 0.0115 µg/mL
[4]
  pseudovirus neutralization IC50: > 10 µg/mL
[5]
  pseudovirus neutralization IC50: > 10 µg/mL
[6]
  pseudovirus neutralization IC50: > 10 µg/mL
[7]
  pseudovirus neutralization IC50: 0.0135 µg/mL

B2: BD56-1892 (protein)
chain 1: QVQLVQSGAEVKKPGSSVKVSCKASGDSFSNYAISWVRQAPGQGLEWVGGIIPIFRTINYGQKFQGRVTITADASTNTVYMELTSLRSEDTAVYYCARDMDFFGSGSYLSGGMDVWGQGTTVTVSS
chain 2: DIQMTQSPSTLSASVGDRVIITCRASQSIRTDLNWYQVKPGRAPKLLIYGASSLQSGVPSRFSGSGSGTDFTLTISTLLPEDFATYYCQQSYSTLPVTFGQGTKVEIK
[1]
  pseudovirus neutralization IC50: 0.843 µg/mL
[2]
  pseudovirus neutralization IC50: 0.0476 µg/mL
[3]
  pseudovirus neutralization IC50: 0.425 µg/mL
[4]
  pseudovirus neutralization IC50: > 10 µg/mL
[5]
  pseudovirus neutralization IC50: > 10 µg/mL
[6]
  pseudovirus neutralization IC50: > 10 µg/mL
[7]
  pseudovirus neutralization IC50: 0.0478 µg/mL

B3: BD56-1893 (protein)
chain 1: QVQLVQSGAEVKKPGSSVKVSCKASGGTFSNYAITWVRQAPGQGLEWMGGIIPLFGTTYYAQKFQGRVTITADESTNTAYMELSSLRSEGTAVYYCAGHPRGDCANGVCYPPNYSYYMDVWGKGTTVTVSS
chain 2: QSALTQPASVSGSPGQSITISCTGTNSDVGIYNLVSWYQQHPGKAPKLIIYDVSKRPSGVSNRFSGSKSGNTASLTISGLQAEDESDYYCCSYAGTSTFVFGTGTKVTVL
[1]
  pseudovirus neutralization IC50: 0.00753 µg/mL
[2]
  pseudovirus neutralization IC50: 0.00654 µg/mL
[3]
  pseudovirus neutralization IC50: 0.00343 µg/mL
[4]
  pseudovirus neutralization IC50: > 10 µg/mL
[5]
  pseudovirus neutralization IC50: > 10 µg/mL
[6]
  pseudovirus neutralization IC50: > 10 µg/mL
[7]
  pseudovirus neutralization IC50: 0.00352 µg/mL

B4: BD56-1894 (protein)
chain 1: QITLKESGPTLVRPTQTLTLTCNFSGFSFISSGVGVAWIRQPPGKALEWLGIIYWDGDKRYSPALKTRLTITKETYENQVVLRMTNMDPVDTATYFCAHLVGGVWGFDPWGQGTLVTVSS
chain 2: QSVLTQPPSASGTPGQRVTISCSGSSSNIGINYVCWYRQLPGTAPKLLIYSNDQRPSGVPDRFSGSKSGTSVSLAISGLRSEDEADYYCAAWDDSRSDWVFGGGTKLTVL
[1]
  pseudovirus neutralization IC50: 0.00112 µg/mL
[2]
  pseudovirus neutralization IC50: 0.00083 µg/mL
[3]
  pseudovirus neutralization IC50: 0.00121 µg/mL
[4]
  pseudovirus neutralization IC50: 0.000649 µg/mL
[5]
  pseudovirus neutralization IC50: 0.444 µg/mL
[6]
  pseudovirus neutralization IC50: 0.758 µg/mL
[7]
  pseudovirus neutralization IC50: 0.0056 µg/mL

B5: BD56-1896 (protein)
chain 1: EVQLVESGGGLVQPGGSLRLSCAASGFIFSDYEMNWVRQAQGKGLEWISYISTSGGATNYADSVKGRFTISRDNAKNSLYLQMNSLGAEDTAIYYCARAIYGSGSSTSDCWGQGTLVTVSS
chain 2: DIQMTQSPSSLSASVGDRVTITCRASQNMNNFLNWYQQKPGKAPKLLIYATSTLQSGVPSRFSGSGSGTDFTLTISNLQPEDFATYYCQQSYSLPVTFGQGTRLEIK
[1]
  pseudovirus neutralization IC50: 0.00217 µg/mL
[2]
  pseudovirus neutralization IC50: 0.00172 µg/mL
[3]
  pseudovirus neutralization IC50: 0.00344 µg/mL
[4]
  pseudovirus neutralization IC50: > 10 µg/mL
[5]
  pseudovirus neutralization IC50: > 10 µg/mL
[6]
  pseudovirus neutralization IC50: > 10 µg/mL
[7]
  pseudovirus neutralization IC50: 0.00414 µg/mL

B6: BD56-1902 (protein)
chain 1: DVQLVESGGGLVQPGGSLKLSCAASGFTFSGSAMHWVRQASGKGLEWVGRVRSILHSYATAYSASLKGRFTISRDDSKNTAYLEMNSLEIEDTAVYFCCMSGYSGYDELDVWGQGTMVTVSS
chain 2: DIQMTQSPSSLSASVGDRVTITCRASHTISNYLHWYQKKPGKAPKLLIYAASSLQSGVPSRFSGGGSGTDFTLTISSLQLEDFATYFCQQSYSTPFTFGPGTTVDIK
[1]
  pseudovirus neutralization IC50: > 10 µg/mL
[2]
  pseudovirus neutralization IC50: > 10 µg/mL
[3]
  pseudovirus neutralization IC50: > 10 µg/mL
[4]
  pseudovirus neutralization IC50: > 10 µg/mL
[5]
  pseudovirus neutralization IC50: > 10 µg/mL
[6]
  pseudovirus neutralization IC50: > 10 µg/mL
[7]
  pseudovirus neutralization IC50: 0.131 µg/mL

B7: BD56-1903 (protein)
chain 1: QVQLVQSGAEVKKPGSSVKVSCEASGDTFSKYAINWVRQTPGQGLEWMGRIIPMFDISNYAQKFQGRLTLTADKSTSTAYMELSGLISNDAAIYYCATSAYQYNSDGYFLQYWGQGTLVTVSS
chain 2: EIVLAQSPGTLSLSPGERATLSCRASQNINSNFLAWYQQRPGQAPRLLIYGASSRATGIPDRFSGSGSGTEFTLTISRLESEDFAVYYCHQYHSSPRTFGQGTKVEIK
[1]
  pseudovirus neutralization IC50: 0.0124 µg/mL
[2]
  pseudovirus neutralization IC50: 0.0159 µg/mL
[3]
  pseudovirus neutralization IC50: 0.00222 µg/mL
[4]
  pseudovirus neutralization IC50: > 10 µg/mL
[5]
  pseudovirus neutralization IC50: > 10 µg/mL
[6]
  pseudovirus neutralization IC50: > 10 µg/mL
[7]
  pseudovirus neutralization IC50: 0.00214 µg/mL

B8: BD56-1916 (protein)
chain 1: EVQLVESGGGLVQPGGSLRLSCAASGFIVSSNYMSWVRQAPGKGLEWVSVIYAGGSTFYADSVKGRFTISRDNSKNMLYLQLNSLRAEDTAVYYCARDYGDFYFDFWGQGTLVTVSS
chain 2: DIQMTQSPSSLSASVGDRVTITCRASQGISNSLAWYQQKPGNAPKLLLYAASTLETGVPSRFRGSGSGTDYTLTISSLQPEDFATYYCQQYYNTPRTFGGGTKVEIK
[1]
  pseudovirus neutralization IC50: > 10 µg/mL
[2]
  pseudovirus neutralization IC50: > 10 µg/mL
[3]
  pseudovirus neutralization IC50: > 10 µg/mL
[4]
  pseudovirus neutralization IC50: > 10 µg/mL
[5]
  pseudovirus neutralization IC50: > 10 µg/mL
[6]
  pseudovirus neutralization IC50: > 10 µg/mL
[7]
  pseudovirus neutralization IC50: 0.0267 µg/mL

B9: BD56-1918 (protein)
chain 1: QVQLVESGGGVVQPERSLRLSCAASGFTFSIYAMHWVRQTPGKGLEWVAVISKDGGYKSSADSVKGRFTISRDNSKGTLYLQMNSLRAEDTAVYYCAREAFGAYDYYFDYWGQGTLVTVSS
chain 2: DIQMTQSPSSLSASVGDRVTITCRASQGIRNSLAWYQQKPGKAPKLLLYAASTLESGVPSRFSGSGSGTDYTLTISSLQPEDFATYFCQQYYINPGNTFGQGTKLEIK
[1]
  pseudovirus neutralization IC50: 3.99 µg/mL
[2]
  pseudovirus neutralization IC50: 5.55 µg/mL
[3]
  pseudovirus neutralization IC50: > 10 µg/mL
[4]
  pseudovirus neutralization IC50: > 10 µg/mL
[5]
  pseudovirus neutralization IC50: > 10 µg/mL
[6]
  pseudovirus neutralization IC50: > 10 µg/mL
[7]
  pseudovirus neutralization IC50: 1.77 µg/mL

B10: BD56-1923 (protein)
chain 1: QVRLQESGPGLVKPSGTLSLTCAVSGGSLNTPNWWSWVRQPPGKGLEWIGEIHHSGNTNYNPSLKTRVTISVDKSKNEISLKLNSVTAADTAMFYCTRDRGGVGDGFDMWGQGTMVTVSS
chain 2: QSALTQPASVSGSPGQSITISCTGTSSDVGAYKYVSWYQQHPGKAPKLIIYDVSDRPSGISHRFSGSKSGNTASLTISGLQPEDEADYYCNSYTSISTRVFGSGTKVTVL
[1]
  pseudovirus neutralization IC50: > 10 µg/mL
[2]
  pseudovirus neutralization IC50: 0.104 µg/mL
[3]
  pseudovirus neutralization IC50: > 10 µg/mL
[4]
  pseudovirus neutralization IC50: 0.0402 µg/mL
[5]
  pseudovirus neutralization IC50: > 10 µg/mL
[6]
  pseudovirus neutralization IC50: > 10 µg/mL
[7]
  pseudovirus neutralization IC50: 0.0109 µg/mL

B11: BD56-1924 (protein)
chain 1: QVQLVQSGAEVKPPGASVKVSCKASGYTFTGYYMFWVRQAPGQGLEWMGRINPNSGGTNYAQKFQGRVTMTRDTSISTAYMELSRLRSDDTAVYYCARELGRSVIAWYGGLEDYWGQGTLVTVSS
chain 2: EIVMTQSPATLSVSPGERATLSCRASQSVSINLAWYQQKPGQAPRLLIYGAATRATGIPGRFSGSGSGTEFTLTISSLQSEDFAVYYCLQYNDRPPWTFGQGTKVEIK
[1]
  pseudovirus neutralization IC50: 1.53 µg/mL
[2]
  pseudovirus neutralization IC50: 2.22 µg/mL
[3]
  pseudovirus neutralization IC50: 1.2 µg/mL
[4]
  pseudovirus neutralization IC50: > 10 µg/mL
[5]
  pseudovirus neutralization IC50: > 10 µg/mL
[6]
  pseudovirus neutralization IC50: > 10 µg/mL
[7]
  pseudovirus neutralization IC50: 0.00156 µg/mL

B12: BD56-1926 (protein)
chain 1: QDQLVQSGAAVRKPGSSAKVSCKASGGTFSNYAISWVRQAPGLGLEWLGRTIPILDITNYAQKFQGRVTLTADKSTTTAYMELSSLRSDDTAVYYCARHLYDYGDYLLDYYVMDVWGQGTTVTVSS
chain 2: DIQMTQSPSTLSASVGDRVTITCRASQNINSWLAWYQQKPGKAPKLLIYKASTLESGVPSTFSGSGSGTEFTLTISSLQPDDFATYYCQQYNSSSPFGQGTKVEFK
[1]
  pseudovirus neutralization IC50: 0.0354 µg/mL
[2]
  pseudovirus neutralization IC50: 0.0476 µg/mL
[3]
  pseudovirus neutralization IC50: 0.0383 µg/mL
[4]
  pseudovirus neutralization IC50: 0.0208 µg/mL
[5]
  pseudovirus neutralization IC50: 0.105 µg/mL
[6]
  pseudovirus neutralization IC50: 0.124 µg/mL
[7]
  pseudovirus neutralization IC50: 0.085 µg/mL
